Source: publication PMC4643982
Protein sequences can lack the tags named with them.

Legend:
[1] = target: T1, EutR::MBP (Salmonella enterica serovar Typhimurium SL1344) (UniProt Q9ZFU7); experiment: EMSA; conditions: 1 mM ethanolamine, 150 nM vitamin B12, 25 mM MgCl2, 60 mM HEPES pH 7.5, 300 mM KCl, 25 mM MgCl2, 5 mM EDTA, 3 mM DTT, 500 ug/ml BSA, 50 ng poly-dIdC, 25 min at 25 C, recombinant protein, residues 2-350, protein details: MBP (pMAL-c5X fusion), label: 32P 5' end (T4 PNK), unlabeled as competitor, probe letters rebuilt from the primers and the genome
T1 sequence (looked up): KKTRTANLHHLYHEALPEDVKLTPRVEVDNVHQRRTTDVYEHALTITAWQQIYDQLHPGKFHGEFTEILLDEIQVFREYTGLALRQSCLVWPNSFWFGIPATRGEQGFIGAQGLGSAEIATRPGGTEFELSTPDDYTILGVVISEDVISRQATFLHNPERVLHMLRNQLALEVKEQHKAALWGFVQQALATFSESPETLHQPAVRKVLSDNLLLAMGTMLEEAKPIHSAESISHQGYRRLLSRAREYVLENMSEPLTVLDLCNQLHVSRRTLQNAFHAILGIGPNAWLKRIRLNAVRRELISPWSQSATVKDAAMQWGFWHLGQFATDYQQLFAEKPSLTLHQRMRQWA

[2] = target: T1, EutR::MBP (Salmonella enterica serovar Typhimurium SL1344); experiment: competition with a labelled probe; conditions: unlabeled ssrB probe outcompetes labeled ssrB, 1 mM ethanolamine, 150 nM vitamin B12, 60 mM HEPES pH 7.5, 300 mM KCl, 25 mM MgCl2, 5 mM EDTA, 3 mM DTT, 500 ug/ml BSA, 50 ng poly-dIdC, 25 min at 25 C, recombinant protein, residues 2-350, protein details: MBP (pMAL-c5X fusion), label: 32P 5' end (T4 PNK), unlabeled as competitor, probe letters rebuilt from the primers and the genome

ATAGCAAGATTTTCCAATCACTGGACCTCTTGCTGGCTGATATTGAAAATGCCGTATCGGCTGGAGAAAAAATCGATCAGTTAATTCACACATTAAAAGGCTGTTTAGGTCAAATAGGGCAGACTGAATTGGTATGCTATGTCATAGACATTGAGAATCGCGTAAAAATGGGGAAAATCATCGCGCTGGAGGAACTAACCGACTTACGCCAGAAAATACGTATGATCTTCAAAAACTACACCATTACTTAATATTATCTTAATTTTCGCGAGGGCAGCAAAATGAAAGAATATAAGATCTTATTAGTAGACGATCATGAAATCATCAT (double strand) [ssrB promoter probe]
binding result [1]: binds | binding result [2]: binds
